According to publication PMC9949255:

Molecular target: recombinant C.1086 gp140 K160N (HIV-1 strain C.1086)
Experiment: ELISA; C.1086gp140K160N coated on the wells; incubated with PBS or bacterial lectin (50 μg/mL); soluble CD4 titrated 1:3 from 10 μg/mL, 1 hr at 37°C; detected with anti-human CD4 biotin (OKT4) and streptavidin AP

## soluble CD4 (from UniProt P01730 26-396) (receptor)
  EC50: 1.6 nM
